Anti-infective test results gathered from many reports (values: NIAID ChemDB through PubChem).

Common to all: growth or infection tests; agent: Varicella zoster virus; read by: plaque count; measure: EC50

Two numbers with a dash give a range or band. An empty or dashed field is not shown. ECn is the concentration giving n% inhibition of infection, replication or growth. Rows are shuffled and stem from different studies.

smiles | strain or isolate | cell line | value
Cn1cc(C(=O)NCc2ccc(Cl)cc2)c(=O)c2cc(/C=C\CO)cc(F)c21 |  | VERO | 0.4 µM
CCCCCCCOc1ccc(-c2cc3cn([C@H]4C[C@H](O)[C@@H](CO)O4)c(=O)nc3o2)cc1 | YS | HEL | 0.006 µM
Nc1nccc2c1ncn2C[C@@H](CO)OCP(=O)(O)O | YS/R (TK-) | HEL | 0.06 µg/mL
Cc1cc([C@@H]2C[C@H](O)[C@@H](CO)O2)c(Cl)cc1F | (TK-)07/1 | HEL | >200 µM
O=C(NCc1ccc(Cl)cc1)c1c[nH]c2ccc(C#CCO)cc2c1=O | RAI |  | 0.1 µM
O=C(NC1CCCCC1)[C@H](Cc1ccccc1)NC(=O)n1nnc2ccccc21 | 07/1 (TK-) | HEL | >3.2 µg/mL
CCCCCCCOCCc1cc2cn([C@H]3C[C@H](O)[C@@H](CO)O3)c(=O)nc2o1 | 07/1 (TK-) | HEL | >50 µM
CCCCCCCCc1cc2cn([C@H]3C[C@H](O)[C@@H](CO)O3)c(=O)nc2s1 | YS | HEL | 0.001 µM
CO[C@@H]1[C@H](O)[C@@H](CO)O[C@H]1c1ccccc1 | OKA | HEL | >50 µg/mL
Cc1cn([C@@H]2O[C@H](CO)[C@H]2CO)c(=O)[nH]c1=O | V8602/7-1-3 (TK-) | HFF | 1.2 µg/mL
Nc1nc2c(ncn2CC(CO)CCO)c(=O)[nH]1 |  | VERO | 2 µM
CCCCCCCCCCCCc1cc2cn([C@H]3C[C@H](O)[C@@H](CO)O3)c(=O)nc2[nH]1 | YS | HEL | 14 µM
COC(=O)C(C)NP(=O)(OC[C@@H]1C/C1=C/n1cc(N)c(=O)[nH]c1=O)Oc1ccccc1 |  | HFF | 56.2 µM
CCCCc1cc2cnc(=O)[nH]c2o1 | OKA | HEL | 213 µM
Nc1nc2ncn(CCOCP(=O)(O)O)c2c(=O)[nH]1 | YS/R (TK-) | HEL | 0.05 µg/mL
Nc1nc2c(ncn2[C@H]2CCC[C@H]2CO)c(=O)[nH]1 | OKA (TK+) | HEL | >50 µg/mL
Nc1nc(=S)n([C@@H]2O[C@H](CO)[C@@H](O)[C@@H]2O)cc1I | HOSEN | MRC-5 | 3.9 µM
Nc1nc2c(ncn2CCOCP(=O)(O)O)c(=O)[nH]1 | OKA (TK+) | HEL | 0.001 µg/mL
CCCCCCCCCCc1cc2cn([C@H]3C[C@H](O)[C@@H](CO)O3)c(=O)nc2n1CCC | 07/1 (TK-) | HEL | >5 µM
O=c1[nH]c(=S)n([C@H]2C[C@H](O)[C@@H](CO)O2)cc1Br | HOSEN | MRC-5 | 31.4 µM
OC[C@H]1O[C@@H](c2ccc(F)cc2F)C[C@@H]1O | TK+/YS | HEL | >200 µM
CC(C)C1NC(=O)N(C2CCCC2)C1=O | 07/1 (TK-) | HEL | 90 µg/mL
CCCCCOc1ccc(-c2cc3cn([C@H]4C[C@H](O)[C@@H](CO)O4)c(=O)nc3o2)cc1 | YS | HEL | 0.001 µM
O=c1nc2oc(CCCC3OCCO3)cc2cn1[C@H]1C[C@H](O)[C@@H](CO)O1 | 07/1 (TK-) | HEL | >200 µM
N#Cc1cc([C@H]2C[C@H](O)[C@@H](CO)O2)c(F)cc1F | (TK-)07/1 | HEL | >200 µM
CCOP(=O)(O)COCCn1cnc2c(=O)[nH]c(N)nc21 | 07/1 (TK-) | HEL | 0.007 µg/mL
CCCCCCC#Cc1cn(S(=O)(=O)c2ccc(C)cc2)c(=O)[nH]c1=O | OKA | HEL | >16 µM
CC(C)[C@H](N)C(=O)NCC(=O)OCC(COC(=O)CNC(=O)[C@@H](N)C(C)C)OCn1cnc2c(=O)[nH]c(N)nc21 |  | HFF | 4.3 µM
COC(=O)C(C)NP(=O)(OC[C@@H]1C/C1=C\n1cc(C)c(=O)[nH]c1=O)Oc1ccccc1 |  | HFF | >300 µM
O=C(NCc1ccc(Cl)cc1)c1c[nH]c2ccc(C#CCO)cc2c1=O | 20 isolates |  | 0.2 µM
Cn1cc(C(=O)NCc2ccc(Cl)cc2)c(=O)c2cc(CN3CCOCC3)ccc21 |  | HFF | 0.1 µM
COc1ccc(-c2cc3cn([C@H]4C[C@H](O)[C@@H](CO)O4)c(=O)nc3o2)cc1 | YS | HEL | 0.045 µM
NC1=NS(=O)(=O)N(Cc2ccccc2)c2nc(-c3ccc(Cl)cc3)[nH]c21 | YS/R (TK-) | HEL | 4 µg/mL
CCCCCCCCc1cc2cn([C@H]3C[C@H](O)[C@@H](CO)O3)c(=O)nc2[nH]1 | YS | HEL | 0.38 µM
Nc1nc(N)c2ncn(C[C@H]3CCC[C@H]3CO)c2n1 | 07/1 (TK-) | HEL | >50 µg/mL
CCCCCc1ccc(-c2cc3cn(C4CC[C@@H](CO)O4)c(=O)nc3o2)cc1 | 07/1 (TK-) | HEL | >20 µM
Nc1nc2c(ncn2CCC(CO)CO)c(=O)[nH]1 | Kawaguchi | MRC-5 | 0.69 µg/mL
CCCCCCCCCCCCc1cc2cn([C@H]3C[C@H](O)[C@@H](CO)O3)c(=O)nc2o1 | 07 (TK-) | HEL | >50 µM
CCCCCCC#Cc1c[nH]c(=O)[nH]c1=O | OKA | HEL | >80 µM
CCCCCOc1ccc(-c2cc3cn([C@H]4C[C@H](O)[C@@H](CO)O4)c(=O)nc3o2)cc1 | YS | HEL | 0.001 µM
CCCCCCCCc1cc2cn(C3C[C@@H](O)[C@@H](CO)O3)c(=O)nc2o1 |  | HEL | 24 µM
CCCCCCCOc1ccc(-c2cc3cn([C@H]4C[C@H](O)[C@@H](CO)O4)c(=O)nc3o2)cc1 | YS | HEL | 0.006 µM
O=c1nc2oc(CCOC3CCCCO3)cc2cn1[C@H]1C[C@H](O)[C@@H](CO)O1 | YS | HEL | >40 µM
CCCCCCCCCCCc1cc2cn([C@H]3C[C@H](O)[C@@H](CO)O3)c(=O)nc2o1 | YS | HEL | 0.37 µM
CC[Si]1(C(C)C)O[C@H]2[C@@H](O)[C@H](c3ccccc3)O[C@@H]2CO[Si](C(C)C)(C(C)C)O1 | OKA | HEL | >2 µg/mL
CCCCCCc1cc2cn([C@H]3C[C@H](O)[C@@H](CO)O3)c(=O)nc2[nH]1 | OKA | HEL | >50 µM
O=c1[nH]c(=O)n([C@H]2C[C@H](O)[C@@H](CO)O2)cc1-c1cc(-c2ccccc2)no1 | YS | HEL | 73 µg/mL
Nc1nc(=S)n([C@@H]2O[C@H](CO)[C@@H](O)[C@@H]2O)cc1Cl | HOSEN | MRC-5 | 244 µM
O=c1[nH]c(=O)n([C@H]2C[C@H](O)[C@@H](CO)O2)cc1I | Ohtomo | HEF | 1 µg/mL
CC(=O)OCCOCN1c2nc(Cc3ccccc3)[nH]c2C(N)=NS1(=O)=O | 07/1 (TK-) | HEL | >50 µg/mL
C#CCCCCc1cc2cn([C@H]3C[C@H](O)[C@@H](CO)O3)c(=O)nc2o1 | YS | HEL | 0.024 µM
Nc1nc(=S)n([C@H]2C[C@H](O)[C@@H](CO)O2)cc1Br | HOSEN | MRC-5 | 8.43 µM
CCCCCCc1ccc(-c2cc3cn(C4CC[C@@H](CO)O4)c(=O)nc3o2)cc1 | YS (TK+) | HEL | 5 µM
CO[C@H]1[C@H]2O[Si](C(C)C)(C(C)C)O[Si](C(C)C)(C(C)C)OC[C@@H]2O[C@@H]1c1ccccc1 | 07/1 | HEL | >2 µg/mL
Nc1nc2c(ncn2COC[C@@H](O)CO)c(=O)[nH]1 | KMCC | MRC-5 | >25 µg/mL
CCCCC#Cc1cn(S(=O)(=O)c2ccc(C)cc2)c(=O)[nH]c1=O | OKA | HEL | >16 µM
Nc1nc2c(ncn2CC(CO)OCP(=O)(O)O)c(=O)[nH]1 | YS/R (TK-) | HEL | 0.07 µg/mL
Cn1cc(C(=O)NCc2ccc(Cl)cc2)c(=O)c2cc(CN3CCOCC3)ccc21 | GE varicella isolate | HFF | 0.1 µM
O=c1[nH]c(=O)n([C@H]2C[C@H](O)[C@@H](CO)O2)cc1I | OKA-H12 | HEL | 0.4 µg/mL
CCCCCCCCCCc1cc2cn([C@H]3C[C@H](O)[C@@H](CO)O3)c(=O)nc2o1 | YS | HEL | 0.008 µM
CCCCCCCCCCc1cc2cn([C@H]3C[C@H](O)[C@@H](CO)O3)c(=O)nc2n1CC | YS | HEL | >5 µM
COC(=O)C(C)NP(=O)(OC[C@@H]1C/C1=C\n1cc(N)c(=O)[nH]c1=O)Oc1ccccc1 |  | HFF | 92.4 µM
CCCCCCCc1cc2cn([C@H]3C[C@H](O)[C@@H](CO)O3)c(=O)nc2o1 | YS | HEL | 0.33 µM
Cc1cc([C@@H]2C[C@H](O)[C@@H](CO)O2)c(F)cc1F | (TK+)/OKA | HEL | >200 µM
O=c1nc2oc(CCCC3OCCCO3)cc2cn1[C@H]1C[C@H](O)[C@@H](CO)O1 | YS/R (TK-) | HEL | >200 µM
O=c1[nH]c(=O)n([C@H]2C[C@H](O)[C@@H](CO)O2)cc1/C=C/I | OKA | HEF | 0.001 µg/mL
CCCCCCCCCCCCc1cc2cn([C@H]3C[C@H](O)[C@@H](CO)O3)c(=O)nc2o1 | YS/R (TK-) | HEL | >20 µM
Nc1nc(=S)n([C@@H]2O[C@H](CO)[C@@H](O)[C@@H]2O)cc1Br | HOSEN | MRC-5 | 88.2 µM
Nc1nc2c(ncn2COC(CO)CO)c(=O)[nH]1 |  | HFF | 19 µM
Nc1nc2c(ncn2C[C@]2(CO)C[C@H]2CO)c(=O)[nH]1 | 07/1 (TK-) | HEL | 3 µg/mL
O=c1[nH]c(=O)n([C@H]2C[C@H](O)[C@@H](CO)O2)cc1/C=C/Br | HIRAI | HEF | 0.002 µg/mL
CC(C)C[C@H](NC(=O)n1nnc2ccccc21)C(=O)NC1CCCCC1 | (TK+)/OKA | HEL | >16 µg/mL
CCOc1ccc(-c2cc3cn([C@H]4C[C@H](O)[C@@H](CO)O4)c(=O)nc3o2)cc1 | YS | HEL | 0.012 µM
Nc1nc2c(ncn2CCC(CO)CO)c(=O)[nH]1 |  |  | 1–10 µM
Nc1nc2c(ncn2C[C@H]2CCC[C@H]2CO)c(=O)[nH]1 | 07/1 (TK-) | HEL | >50 µg/mL
Nc1nc2c(ncn2COC(CO)CO)c(=O)[nH]1 |  |  | 1–10 µM
CCCCCCc1cc2cn([C@H]3C[C@H](O)[C@@H](CO)O3)c(=O)nc2[nH]1 | OKA | HEL | >50 µM
OC[C@H]1O[C@@H](c2cc(C(F)(F)F)c(F)cc2F)C[C@@H]1O | TK+/YS | HEL | >200 µM

Again, the opening 7 rows:

Cn1cc(C(=O)NCc2ccc(Cl)cc2)c(=O)c2cc(/C=C\CO)cc(F)c21 ; cell line: VERO ; value: 0.4 µM
CCCCCCCOc1ccc(-c2cc3cn([C@H]4C[C@H](O)[C@@H](CO)O4)c(=O)nc3o2)cc1 ; strain or isolate: YS ; cell line: HEL ; value: 0.006 µM
Nc1nccc2c1ncn2C[C@@H](CO)OCP(=O)(O)O ; strain or isolate: YS/R (TK-) ; cell line: HEL ; value: 0.06 µg/mL
Cc1cc([C@@H]2C[C@H](O)[C@@H](CO)O2)c(Cl)cc1F ; strain or isolate: (TK-)07/1 ; cell line: HEL ; value: >200 µM
O=C(NCc1ccc(Cl)cc1)c1c[nH]c2ccc(C#CCO)cc2c1=O ; strain or isolate: RAI ; value: 0.1 µM
O=C(NC1CCCCC1)[C@H](Cc1ccccc1)NC(=O)n1nnc2ccccc21 ; strain or isolate: 07/1 (TK-) ; cell line: HEL ; value: >3.2 µg/mL
CCCCCCCOCCc1cc2cn([C@H]3C[C@H](O)[C@@H](CO)O3)c(=O)nc2o1 ; strain or isolate: 07/1 (TK-) ; cell line: HEL ; value: >50 µM